Results deposited as PubChem BioAssay AID1224833 (University of Georgia, 2016).
Here is an unselected part of about 12,000 deposited reagents. Over the whole deposit, about 5,600 (46%) are marked active. 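Active calls cover z-scores past 1 in both directions, so they include lowered as well as raised rotavirus replication.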 Unmarked entries are inactive.

- Screen: 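Human genes whose knock-down alters rotavirus replication in monkey cells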 (primary screen)
- Cell system: monkey MA104 kidney cells
- Reagent: siRNA pool against human genes, 50 nM
- Duration: 48 h knock-down before infection; read 24 h after infection
- Conditions: infection with rotavirus strain RV3 two days after transfection; infectious dose for this stage not given
- Read-out: 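z-score of rotavirus antigen signal per well, from a fluorescent immunoassay, relative to non-targeting control wells on the same plate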
- Reading the numbers: z-score vs non-targeting control: higher = more rotavirus replication than with non-targeting control
- Active means: In these data the active calls have z-score vs non-targeting control at about -1 or lower, or at about 1 or higher
- Calls: active = z-score beyond 1 either way; inactive = z-score within 1 of zero

| target gene | z-score vs non-targeting control |
| --- | --- |
| GNPTG | -1.14 (active) |
| UQCRQ | 0.474 |
| ZBTB35 | -0.223 |
| GCSH | 1.69 (active) |
| MED30 | -1.07 (active) |
| SOX11 | -0.563 |
| CHCHD2 | -0.362 |
| STAB2 | 0.267 |
| SLC2A8 | 1.31 (active) |
| WFDC8 | -0.591 |
| INSYN2A | 1.11 (active) |
| TM4SF20 | -0.899 |
| DDX11 | -1.3 (active) |
| PSIP1 | -0.488 |
| APLN | -1.28 (active) |
| NXPH2 | 1.13 (active) |
| SH3BP5L | -0.608 |
| ELF4 | -0.625 |
| C1orf54 | 0.0819 |
| RHPN1 | 1.41 (active) |
| CAMSAP1 | 0.79 |
| CDK5RAP1 | -0.847 |
| DYNC1I2 | -0.833 |
| ETV6 | -1.98 (active) |
| ABCG2 | 1.88 (active) |
| FCGR2C | 0.266 |
| ESCO1 | -1.08 (active) |
| OCM | -0.226 |
| IL27RA | -1.24 (active) |
| MRPL10 | 0.0805 |
| KYNU | 0.619 |
| KRTAP25-1 | 1.12 (active) |
| PAQR9 | 1.08 (active) |
| FIS1 | 0.126 |
| CHLSN | 0.807 |
| FRMD6 | 0.0074 |
| TRAM2 | -1.98 (active) |
| HDDC2 | -1.51 (active) |
| SNX1 | -1.16 (active) |
| TPGS2 | -0.226 |
| ARID4B | 1.33 (active) |
| TP53AIP1 | 1.27 (active) |
| TRMT11 | -1.21 (active) |
| DYNC2LI1 | 3.07 (active) |
| SLC66A3 | 1.21 (active) |
| SPAG9 | -0.323 |
| ZNF683 | -0.697 |
| FLOT1 | 1.15 (active) |
| OR10A2 | 1.09 (active) |
| ZNF510 | -0.344 |
| ALDH1A1 | -1.99 (active) |
| OR8B2 | -1.3 (active) |
| MAGEA9 | 0.921 |
| ZDHHC17 | -0.304 |
| NLGN4X | 0.724 |
| GCNT3 | -1.23 (active) |

No new results follow: 13 of the entries above.
| target gene | z-score vs non-targeting control |
| --- | --- |
| STAB2 | 0.267 |
| SLC2A8 | 1.31 (active) |
| WFDC8 | -0.591 |
| INSYN2A | 1.11 (active) |
| TM4SF20 | -0.899 |
| DDX11 | -1.3 (active) |
| PSIP1 | -0.488 |
| APLN | -1.28 (active) |
| NXPH2 | 1.13 (active) |
| SH3BP5L | -0.608 |
| ELF4 | -0.625 |
| C1orf54 | 0.0819 |
| RHPN1 | 1.41 (active) |

More entries:
| target gene | z-score vs non-targeting control |
| --- | --- |
| TPPP2 | 0.388 |
| DEFB103A | 1.32 (active) |
| CYP2S1 | 1.02 (active) |
| PDZD7 | -0.257 |
| ABAT | -0.561 |
| ZNF280D | -2.47 (active) |
| FYCO1 | 0.235 |
| TAF4B | 0.973 |
| HTR1D | 1.11 (active) |
| SGCB | 0.228 |
| PADI6 | -1.66 (active) |
| NAT14 | -0.229 |
| ZNF302 | 0.834 |
| CD300E | -1.51 (active) |
| ZSCAN22 | 1.01 (active) |
| DOC2A | 1.27 (active) |
| SPN | 0.616 |
| DNAJC5B | -1.29 (active) |
| RHOXF1 | -1.02 (active) |
| CNDP1 | 1.33 (active) |
| TSNAXIP1 | 1.35 (active) |
| CCDC81 | 0.528 |
| ZNRD2 | -0.759 |
| ZNF350 | 0.0444 |
| ARMCX6 | -1.52 (active) |
| GOLGA1 | -1.3 (active) |
| IL17B | -0.0298 |
| RPS29 | -0.48 |
| PAPPA2 | -0.791 |
| C10orf67 | -1.13 (active) |
| SIGLEC1 | 0.552 |
| CA2 | -0.528 |
| ELAC1 | 1.3 (active) |
| CCL8 | 0.249 |
| OR8G2P | 0.105 |
| ITGB1BP2 | 1.18 (active) |
| LYPD5 | -1.37 (active) |
| HS3ST5 | 1.55 (active) |
| CHIC1 | -0.519 |
| IGFBP4 | -0.511 |
| CNOT2 | -1.29 (active) |
| CR1 | 1.35 (active) |
| OR14I1 | -1.28 (active) |
| LIN7A | -1.59 (active) |
| CCDC88B | -0.478 |
| AKR1B15 | -2.37 (active) |
| MRC1 | 0.284 |
| GCHFR | 0.634 |
| OR2B3 | -1.68 (active) |
| DDX43 | -2.44 (active) |
| DNAJC15 | 0.007 |
| PRUNE1 | -0.523 |
| ENY2 | -1.83 (active) |
| CADPS2 | 0.231 |
